Measurements as given in patent US20070081573A1, “Process for inhibiting biofilm formation on and/or removing biofilm from an enhanced tube” (Ashland Licensing and Intellectual Property LLC, priority 2005, published 2007).

Test system: pseudomonas aerigenosa (ATCC 27853) biofilm
Test: Biofouling test on enhanced tube and smooth tube in laboratory scale cooling tower system (modified P-U-L-S-E fouling monitor)
Assay type: cell-based

## chlorine
Chlorine slugged over 4 hour period/day to ORP +450 mV from 13th day, after 12 days of Dispersant A 150 ppm daily
  fouling factors on both tubes: dropped
Used alone, smooth tubes and enhanced tubes
  reduction of biofilm deposits (summary of test results): not effective alone
